According to article PMC11298430, “Synthesis and In vitro evaluation of bichalcones as novel anti-toxoplasma agents” (Frontiers in Chemistry, 2024):

Each compound was assayed on human fibroblasts Hs27 (assay: MTT cytotoxicity assay). Conditions: ratio of CC50/IC50 (Hs27 / T. gondii).
Format: cell-based
Protocol: The MTT [3-(4, 5-dimethylthiazole-2-yl)-2, 5-diphenyltetrazolium bromide] reduction assay ([Mosmann, 1983]) was used to quantify the cytotoxic effects of the examined chalcones and bichalcones on the host cells. To avoid edge effects, only the inner 60 wells of each plate were used. Briefly, 5 × 10^4 Hs27 cells per well were cultured in 96-well microtiter plates in Iscove’s modified Dulbecco’s medium (IMDM, Gibco–Thermo Fisher Scientific, Braunschweig, Germany, #12440053) with a volume of 100 µL per well and incubated overnight at 37°C until confluence. Different concentrations of the compounds (ranging from 200 μM to 0.09 µM) were then added to the Hs27 cells. Controls included untreated Hs27 cells treated with DMSO, and cells treated with staurosporine (0.031, 0.062, 0.125, 0.25, 0.5, 1 µM) (Merck, Darmstadt, Germany, #S4400), a natural product known for its potent activity as apoptosis inducer ([Belmokhtar et al., 2001]). After 24 h of incubation, the culture media were replaced with 100 µL of Dulbecco’s Modified Eagle Medium (DMEM) medium without red phenol (Gibco-Thermo Fisher Scientific, Braunschweig, Germany, #21041025) plus 10% heat-inactivated fetal bovine serum (FBS Standard, South America origin, fetal bovine serum, […] sterile filtered, PAN-Biotech, Aidenbach, Germany, #P30-3,306), and […] 2-mercaptoethanol (Gibco-Thermo Fisher Scientific, Braunschweig, Germany, #21985023). The experiment was performed following the manufacturer’s instructions (CyQuant MTT Cell Viability Assay Kit, Thermo Fisher Scientific, Braunschweig, Germany, #V-13154). Optical density (O.D.) was measured at 570 nm using a microplate reader (TECAN Sunrise, Männedorf, Switzerland). The half-maximal cytotoxic concentration (CC50) values of each compound against Hs27 cells relative to DMSO-treated samples were determined using GraphPad PRISM™ statistical software (version 9.5.1; San Diego, CA). In addition, the selectivity index (SI) of each compound was calculated from the ratio of CC50/IC50.

Question: How did the SI turn out when `COc1cc(OC)c(-c2c(OC)cc(OC)c(C(=O)/C=C/c3cccc(Br)c3)c2O)c(O)c1C(=O)/C=C/c1cccc(Br)c1` [2bf] was run?
Answer: Its SI is greater than 16.

Question: `COc1cc(C)cc(O)c1C(=O)/C=C/c1cccc(Br)c1` [1af] was tested. Which SI did it give?
Answer: Its SI is 21.7.

Question: `COc1ccc(/C=C/C(=O)c2c(O)cc(C)cc2OC)cc1` [1aa] was tested. Which SI did it give?
Answer: The SI was 8.2.

Question: With `COc1cc(OC)c(-c2c(OC)cc(OC)c(C(=O)/C=C/c3ccc(Br)cc3)c2O)c(O)c1C(=O)/C=C/c1ccc(Br)cc1` [2be] as the compound, how does the SI read?
Answer: Its SI is greater than 23.

Question: For `COc1cc(C)c(-c2c(C)cc(OC)c(C(=O)/C=C/c3ccccc3Br)c2O)c(O)c1C(=O)/C=C/c1ccccc1Br` [2ag], which SI is on record?
Answer: The SI was greater than 11.

Question: For `COc1cc(OC)c(-c2c(OC)cc(OC)c(C(=O)/C=C/c3ccccc3)c2O)c(O)c1C(=O)/C=C/c1ccccc1` [2bb], which SI is on record?
Answer: Its SI is greater than 21.

Question: `COc1cc(C)cc(O)c1C(=O)/C=C/c1ccc(Br)cc1` [1ae] was tested. Which SI did it give?
Answer: Its SI is 18.

Question: How did the SI turn out when `COc1cc(C)c(-c2c(C)cc(OC)c(C(=O)/C=C/c3ccc(Br)cc3)c2O)c(O)c1C(=O)/C=C/c1ccc(Br)cc1` [2ae] was run?
Answer: Its SI is greater than 25.

Question: For `COc1cc(C)c(-c2c(C)cc(OC)c(C(=O)/C=C/c3cccc(Br)c3)c2O)c(O)c1C(=O)/C=C/c1cccc(Br)c1` [2af], which SI is on record?
Answer: The SI was greater than 7.

Question: `COc1cc(O)c(C(=O)/C=C/c2cccc(Br)c2)c(OC)c1` [1bf] was tested. Which SI did it give?
Answer: Its SI is greater than 18.

Question: Which SI does the source give for `COc1cc(OC)c(-c2c(OC)cc(OC)c(C(=O)/C=C/c3ccc(C(F)(F)F)cc3)c2O)c(O)c1C(=O)/C=C/c1ccc(C(F)(F)F)cc1` [2bd] here?
Answer: The SI was greater than 65.

Question: For `COc1cc(C)c(-c2c(C)cc(OC)c(C(=O)/C=C/c3ccccc3)c2O)c(O)c1C(=O)/C=C/c1ccccc1` (racemic) [2ab], which SI is on record?
Answer: The SI was > 6,994.

Question: `COc1ccc(/C=C/C(=O)c2c(OC)cc(C)c(-c3c(C)cc(OC)c(C(=O)/C=C/c4ccc(OC)cc4)c3O)c2O)cc1` [2aa] was tested. Which SI did it give?
Answer: The SI was greater than 30.

Question: For `COc1cc(O)c(C(=O)/C=C/c2ccccc2)c(OC)c1` [1bb], which SI is on record?
Answer: Its SI is 14.6.

Question: For `COc1cc(C)c(-c2c(C)cc(OC)c(C(=O)/C=C/c3ccc(C(F)(F)F)cc3)c2O)c(O)c1C(=O)/C=C/c1ccc(C(F)(F)F)cc1` [2ad], which SI is on record?
Answer: Its SI is greater than 8.
